Key:
[1] = target: BoNT/A LC (Clostridium botulinum, UniProt P0DPI1); assay: BoNT/B substrate cleavage by recombinant BoNT/A LC; settings: 10 nM recombinant LC/A, 37° C.
[2] = target: Trypsin (Sus scrofa, UniProt P00761)
[3] = target: Proteinase K (Parengyodontium album, UniProt P06873)
[4] = target: BoNT/A (Clostridium botulinum, UniProt P0DPI1); assay: Michaelis-Menten kinetics of cleavable and control peptides with BoNT/A; settings: BoNT/A 10 nM, 2 hours
[5] = target: Thermolysin (Bacillus thermoproteolyticus, UniProt P00800)

By UniProt entry, the sequences of proteins in these tests, tags left out. Residues count along the entry.
UniProt P0DPI1, whole entry, looked up: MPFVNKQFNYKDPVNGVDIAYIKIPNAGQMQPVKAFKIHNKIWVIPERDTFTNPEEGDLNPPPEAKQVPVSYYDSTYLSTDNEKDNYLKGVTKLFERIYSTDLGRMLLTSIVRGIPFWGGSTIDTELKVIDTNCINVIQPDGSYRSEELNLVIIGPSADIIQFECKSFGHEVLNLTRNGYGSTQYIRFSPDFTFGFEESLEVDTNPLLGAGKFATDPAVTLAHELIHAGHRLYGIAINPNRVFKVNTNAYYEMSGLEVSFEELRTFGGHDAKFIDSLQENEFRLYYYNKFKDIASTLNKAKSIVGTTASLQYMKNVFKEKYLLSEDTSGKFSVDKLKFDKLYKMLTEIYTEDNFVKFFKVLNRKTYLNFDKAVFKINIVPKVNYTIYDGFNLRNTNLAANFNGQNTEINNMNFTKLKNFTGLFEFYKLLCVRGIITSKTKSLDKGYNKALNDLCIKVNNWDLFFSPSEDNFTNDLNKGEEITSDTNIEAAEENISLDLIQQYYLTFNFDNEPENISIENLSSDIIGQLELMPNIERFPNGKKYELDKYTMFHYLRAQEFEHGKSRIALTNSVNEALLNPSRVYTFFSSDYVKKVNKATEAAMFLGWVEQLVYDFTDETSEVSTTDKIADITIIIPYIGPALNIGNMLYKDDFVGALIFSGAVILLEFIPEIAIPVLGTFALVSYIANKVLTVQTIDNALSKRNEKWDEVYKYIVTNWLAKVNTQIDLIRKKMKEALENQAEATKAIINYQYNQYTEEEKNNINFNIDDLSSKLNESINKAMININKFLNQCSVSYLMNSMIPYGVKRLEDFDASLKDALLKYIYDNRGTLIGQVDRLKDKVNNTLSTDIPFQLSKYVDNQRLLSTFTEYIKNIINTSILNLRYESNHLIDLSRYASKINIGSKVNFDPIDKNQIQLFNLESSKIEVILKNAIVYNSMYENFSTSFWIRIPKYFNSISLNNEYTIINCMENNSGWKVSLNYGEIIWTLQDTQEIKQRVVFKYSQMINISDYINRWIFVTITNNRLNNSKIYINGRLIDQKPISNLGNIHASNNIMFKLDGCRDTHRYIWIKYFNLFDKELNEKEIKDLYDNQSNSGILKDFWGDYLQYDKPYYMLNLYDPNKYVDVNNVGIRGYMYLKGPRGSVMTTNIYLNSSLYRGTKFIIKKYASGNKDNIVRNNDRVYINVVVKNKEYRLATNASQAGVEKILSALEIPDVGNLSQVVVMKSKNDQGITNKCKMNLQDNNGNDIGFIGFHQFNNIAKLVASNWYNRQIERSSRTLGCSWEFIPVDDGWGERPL
UniProt P00761, 9-231 limits assumed: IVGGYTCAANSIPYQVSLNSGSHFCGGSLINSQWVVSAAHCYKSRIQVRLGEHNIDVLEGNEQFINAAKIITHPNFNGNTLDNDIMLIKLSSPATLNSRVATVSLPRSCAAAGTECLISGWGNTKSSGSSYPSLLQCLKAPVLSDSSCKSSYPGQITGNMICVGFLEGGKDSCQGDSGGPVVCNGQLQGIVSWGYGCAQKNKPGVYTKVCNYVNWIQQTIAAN
UniProt P06873, 106-384 limits assumed: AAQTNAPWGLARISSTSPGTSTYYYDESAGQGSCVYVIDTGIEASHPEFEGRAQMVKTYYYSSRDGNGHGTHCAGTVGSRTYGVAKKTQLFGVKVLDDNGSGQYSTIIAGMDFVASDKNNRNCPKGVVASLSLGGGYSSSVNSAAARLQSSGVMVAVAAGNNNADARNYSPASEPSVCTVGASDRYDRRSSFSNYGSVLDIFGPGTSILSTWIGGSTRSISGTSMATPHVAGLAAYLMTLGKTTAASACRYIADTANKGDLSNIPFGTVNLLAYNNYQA
UniProt P00800, 233-548 limits assumed: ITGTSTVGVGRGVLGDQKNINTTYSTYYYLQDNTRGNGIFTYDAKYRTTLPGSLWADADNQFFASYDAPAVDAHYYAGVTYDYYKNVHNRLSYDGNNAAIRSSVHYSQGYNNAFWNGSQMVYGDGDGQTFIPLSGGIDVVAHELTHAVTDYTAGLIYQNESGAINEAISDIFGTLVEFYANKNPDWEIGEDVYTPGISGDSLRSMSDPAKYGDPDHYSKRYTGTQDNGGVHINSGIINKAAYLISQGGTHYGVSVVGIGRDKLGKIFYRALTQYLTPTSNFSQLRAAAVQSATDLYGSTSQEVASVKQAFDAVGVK

Compound	cleavage by BoNT/A LC [1]	Km [2] [µM]	Km [3] [µM]	Km [4] [µM]	Km [5] [µM]
K[5-Fam]LSELDDRADALQAGASQFETSAAKLKRK[DABCYL]-amide	did not cleave	–	–	–	–
CCCC[C@H](NC(=O)[C@H](CCCCNC(=O)c1ccc(N=Nc2ccc(N(C)C)cc2)cc1)NC(=O)[C@@H](NC(=O)[C@H](C)NC(=O)[C@H](CCCNC(=N)N)NC(=O)[C@H](CCC(N)=O)NC(=O)[C@H](CC(N)=O)NC(=O)[C@H](C)NC(=O)[C@H](CCC(=O)O)NC(=O)[C@H](CC(=O)O)NC(=O)[C@@H](NC(=O)[C@H](CCCNC(=N)N)NC(=O)[C@@H](NC(=O)c1ccc2c(c1)C(=O)OC21c2ccc(O)cc2Oc2cc(O)ccc21)[C@@H](C)O)[C@@H](C)CC)[C@@H](C)O)C(N)=O	–	9.67	5.46	4.99	8.16
CCCC[C@H](NC(=O)[C@H](CCCCNC(=O)c1ccc(N=Nc2ccc(N(C)C)cc2)cc1)NC(=O)[C@@H](NC(=O)[C@H](C)NC(=O)[C@H](CCCNC(=N)N)NC(=O)[C@H](CCC(N)=O)NC(=O)[C@H](CC(N)=O)NC(=O)[C@H](C)NC(=O)[C@H](CCC(=O)O)NC(=O)[C@H](CC(=O)O)NC(=O)[C@@H](NC(=O)[C@H](CCCNC(=N)N)NC(=O)[C@@H](NC(=O)Cc1c(C)c2ccc(O)cc2oc1=O)[C@@H](C)O)[C@@H](C)CC)[C@@H](C)O)C(N)=O	–	3.4	4.48	2.62	12.7
